Biological target: Neuraminidase (Influenza A virus, UniProt P06820)
Conditions: strain A/Tokyo/3/1967 H2N2

Protein sequences, listed by entry. Tags and fused reporters are not part of them.
UniProt P06820, whole entry, looked up: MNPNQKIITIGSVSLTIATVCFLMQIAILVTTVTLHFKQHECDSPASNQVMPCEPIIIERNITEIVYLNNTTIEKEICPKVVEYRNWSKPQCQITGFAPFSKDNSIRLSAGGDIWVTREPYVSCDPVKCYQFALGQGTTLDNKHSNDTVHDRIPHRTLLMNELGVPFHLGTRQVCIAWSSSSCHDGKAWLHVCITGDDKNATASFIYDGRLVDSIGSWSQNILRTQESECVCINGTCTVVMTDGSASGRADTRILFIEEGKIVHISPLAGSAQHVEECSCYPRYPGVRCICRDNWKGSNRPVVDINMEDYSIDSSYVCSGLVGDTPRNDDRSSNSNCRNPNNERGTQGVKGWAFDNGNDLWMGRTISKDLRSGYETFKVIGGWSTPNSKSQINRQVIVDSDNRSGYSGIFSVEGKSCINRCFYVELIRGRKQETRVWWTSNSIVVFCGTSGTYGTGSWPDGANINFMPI

SMILES | IC50
COCCO[C@@H]1CCCN([C@@H]2C=C(OC=O)C[C@H](NC(=N)N)[C@H]2NC(C)=O)C1 | < 1 nM
COCCO[C@@H]1CCCN([C@@H]2C=C(OC=O)C[C@H](N)[C@H]2NC(C)=O)C1 | < 1 nM

From ChEMBL document CHEMBL5728271, “Cyclohexene compounds and use thereof” (2021)
